Ends that are not written are not given here.
Experiments:
[1] = Differential scanning calorimetry on multilamellar vesicles; details: mean from six scans
[2] = as above; details: mean from six scans; remark: listed apart in the source

Row | Substance | Δ(ΔH) total enthalpy of main phase transition ([1]; peptide/lipid 1:50) [%] | Δ(ΔH) total enthalpy of main phase transition ([1]; peptide/lipid 1:100) [%] | Δ(ΔH) total enthalpy of main phase transition ([2]; peptide/lipid 1:50) [%] | Δ(ΔH) total enthalpy of main phase transition ([2]; peptide/lipid 1:100) [%]
1 | FLSLIPHIVSGVASIAKHF-NH2 [PLS-S1] | −75.9 | −53.4 | −70.1 | −53.3
2 | FLSLIPHIVSGVASLAKHF-NH2 [PLS-S2] | −50.0 | −30.2 | −40.8 | −19.6
3 | FLSMIPHIVSGVAALAKHL-NH2 [PLS-S4] | −80.2 | −25.9 | −66.9 | −60.9

From publication PMC3742671, “Structure, Antimicrobial Activities and Mode of Interaction with Membranes of Bovel Phylloseptins from the Painted-Belly Leaf Frog, Phyllomedusa sauvagii” (PLoS ONE, 2013)
